System: biomass (activated sludge) of the SMBR
Assay: SMBR treatment of real municipal wastewater spiked by BPA
Settings: inlet 0.635-0.822 mg/L, HRT 6 h, 6.0 g VSS/L

SMILES: CC(C)(c1ccc(O)cc1)c1ccc(O)cc1 [BPA, 2,2-Bis(4-hydroxyphenyl)propane]
- Removal rate, BPA: ≧98.9%
- Outlet conc. of SMBR (in the filtrate), BPA (limit of detection 0.001 mg/L): ≦0.001 mg/L
